Assay results from US7582618B2 (priority 2002, dated 2009).

Sequences of proteins named here, by UniProt entry; tags and fusion partners are left off. Residues count along the entry.
UniProt P19711, 3270-3988 limits assumed: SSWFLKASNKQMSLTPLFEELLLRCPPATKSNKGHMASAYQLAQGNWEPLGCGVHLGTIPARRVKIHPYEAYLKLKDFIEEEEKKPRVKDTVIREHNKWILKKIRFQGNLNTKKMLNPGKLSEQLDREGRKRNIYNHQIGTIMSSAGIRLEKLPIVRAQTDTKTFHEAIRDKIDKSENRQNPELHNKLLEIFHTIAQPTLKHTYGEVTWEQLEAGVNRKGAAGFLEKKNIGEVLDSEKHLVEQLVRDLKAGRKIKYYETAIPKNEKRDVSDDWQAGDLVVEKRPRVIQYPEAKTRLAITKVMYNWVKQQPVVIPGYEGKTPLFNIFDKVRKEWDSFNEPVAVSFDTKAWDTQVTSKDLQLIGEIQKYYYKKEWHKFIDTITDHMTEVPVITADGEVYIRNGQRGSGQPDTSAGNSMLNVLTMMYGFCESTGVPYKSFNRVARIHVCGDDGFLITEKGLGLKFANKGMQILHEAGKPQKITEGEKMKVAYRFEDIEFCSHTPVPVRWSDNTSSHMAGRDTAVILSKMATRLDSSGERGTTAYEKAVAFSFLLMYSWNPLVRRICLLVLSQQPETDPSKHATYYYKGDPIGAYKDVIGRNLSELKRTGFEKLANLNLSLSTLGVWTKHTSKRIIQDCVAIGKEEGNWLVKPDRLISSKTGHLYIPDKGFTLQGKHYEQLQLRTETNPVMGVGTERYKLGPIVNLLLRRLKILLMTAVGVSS

Tests used:
WNV = test: microbe, parasite or virus in culture; assay type: cell-based; settings: West Nile virus, read-out: WNV (Table 8b)
[1] = tested on: Yellow Fever Virus 17D in BHK cells; test: microbe, parasite or virus in culture; assay type: cell-based; settings: read-out: Antiviral Efficacy EC50
[2] = biological target: BVDV NS5B RNA-dependent RNA polymerase (Bovine viral diarrhea virus, UniProt P19711); test: RNA synthesis by purified polymerase on synthetic RNA templates

Work on `CC1(O)C(O)C(CO)OC1n1ccc(N)nc1=O` (stereo not shown) [mCyd, 4-Amino-1-(3,4-dihydroxy-5-hydroxymethyl-3-methyl-tetrahydro-furan-2-yl)-1H-pyrimidine-2-one] yielded an EC50 (WNV) of 80 µM and an EC50 [1] of 60 to 80 µM.
`C[C@@]1(O)[C@H](O)[C@@H](COP(=O)(O)OP(=O)(O)OP(=O)(O)O)O[C@H]1n1ccc(N)nc1=O` [mCyd-TP, 2′-C-methyl-cytidine-5′-triphosphate] showed an IC50 [2] of 0.74 µM and a Ki [2] of 0.16 µM.
